Pooled drug test results. Numbers come from NIAID ChemDB, via PubChem.

Shared fields: whole-cell or culture tests; organism: Mycobacterium tuberculosis

MIC bound comes from a single tested concentration.

structure | setting | measure | dose | strain or isolate | method | value
CC(=O)NC[C@H]1CN(c2ccc(N3CCN(c4ccc([N+](=O)[O-])s4)CC3)c(F)c2)C(=O)O1 | - | MIC | - | M-164 | - | 0.5 µg/mL
Cc1cc(/C=C2\SC(=S)N(c3ccccc3)C2=O)c(C)n1-c1ccccc1 | - | inhibition | 6.25 µg/mL | - | resazurin | -20%
CC(C)c1ccc2c(c1)CC[C@H]1[C@](C)(CNCCNC3CCc4ccccc43)CCC[C@]21C | - | MIC | - | - | - | 25 µM
COc1ccc(CCNCCNC(C)c2cccc3ccccc23)cc1 | - | MIC | - | - | - | 50 µM
COc1ccc2c(c1)[n+]([O-])c(C(N)=O)c(N)[n+]2[O-] | - | inhibition | 12.5 µg/mL | H37Rv | BACTEC | 100%
NC(=O)c1cnccn1 | - | MIC | - | Isolate 97-69 | - | 900 µg/mL
CCOC(=O)c1ccc2c(c1)nc(-c1ccccc1)n2CCN1CCCC1=O | - | EC90 | - | H37Rv | resazurin / fluorescence | 63.26 µM
CC(C)c1ccc2c(c1)CC[C@H]1[C@](C)(CNCCN[C@H]3C[C@H]4C[C@@H]([C@@H]3C)C4(C)C)CCC[C@]21C | - | MIC | - | - | - | 25 µM
CCOC(=O)c1ccc2c(c1)nc(-c1ccc(N3CCOCC3)cc1)n2CCN1CCCC1=O | - | MIC | - | H37Rv | resazurin / fluorescence | >100 µM
CCN(CC)CCCN=c1cc2n(-c3ccc(Cl)c(Cl)c3)c3ccccc3nc-2cc1Nc1ccc(Cl)c(Cl)c1 | multidrug-resistant | MIC | - | 2219 | - | 0.25 µg/mL
C=CCN(CCNC/C=C(\C)CC=C(C)C)C1CCCC1 | - | MIC | - | - | - | 12.5 µM
CCOC(=O)c1ccc2c(c1)nc(-c1ccc(O)cc1)n2CCN1CCCC1=O | - | MIC | - | H37Rv | resazurin / fluorescence | >100 µM
COc1ccc(CNCCN[C@@H](C)C2CCCCC2)cc1OC | - | MIC | - | - | - | 50 µM
CCOc1ccc(C(=O)N/N=C/c2ccccc2)cc1 | - | MIC | - | - | - | 200 µg/mL
c1ccc(CCCCNCCNC2CCc3ccccc32)cc1 | - | MIC | - | - | - | 50 µM
CSC(=S)N/N=C/c1cccc(C)n1 | - | MIC | - | H37Rv | - | >12.8 µg/mL
COc1ccc2c(=O)n(-c3ccc(Cl)c(Cl)c3)c(=O)oc2c1 | - | MIC | - | CNCTC MY331/88 | - | 16 µM
CC1CC2=C(C(=O)c3ccccc3C2=O)C(C)O1 | - | MIC bound | - | H37Rv | BACTEC | >12.5 µg/mL
CO[C@H]1/C=C/O[C@@]2(C)Oc3c(C)c(O)c4c(=O)c(c5oc6cc(N7CCN(C(C)C)CC7)cc(=O)c6nc5c4c3=C2O)NC(=O)/C(C)=C\C=C\[C@H](C)[C@H](O)[C@@H](C)[C@@H](O)[C@@H](C)[C@H](OC(C)=O)[C@@H]1C | - | MIC | - | 3064 (rifampin-sensitive) | - | 0.012 µg/mL
CO/C(=N\N=C\c1ccc(Cl)cc1)c1ccncc1 | - | MIC | - | 6 PI | - | >20 µg/mL
O=C(O)c1ccccc1-c1c2cc(Br)c(=O)c(Br)c-2oc2c(Br)c(O)c(Br)cc12 | - | MIC bound | - | H37Rv | BACTEC | >12.5 µg/mL
c1ccc(C(CNCCNCC(c2ccccc2)c2ccccc2)c2ccccc2)cc1 | - | MIC | - | - | - | 37.5 µM
CN(C)[C@@H]1C(=O)C(C(N)=O)=C(O)[C@@]2(O)C(=O)C3=C(O)c4c(O)cccc4[C@@](C)(O)[C@H]3C[C@@H]12 | - | MIC bound | - | H37Rv | BACTEC | ≤12.5 µg/mL
NNC(=O)c1ccncc1 | - | MIC | - | PR819 | - | 10 µg/mL
NC(=S)SC1=NNC2(C(=O)N1)c1ccccc1-c1ccccc12 | - | MIC | - | H37Rv | BACTEC | 16 µg/mL
COc1ccccc1N=Nc1c(O)c2cccc([N+](=O)[O-])c2[nH]c1=O | - | MIC | - | H37Rv | resazurin | >6.25 µg/mL
CCOC(=O)c1ccc2c(c1)nc(-c1ccc(OC)cc1)n2CCN1CCCC1=O | - | MIC | - | H37Rv | resazurin / fluorescence | >100 µM
O=c1[nH]c2c(Cl)cccc2c(O)c1N=Nc1ccc(Cl)c(Cl)c1 | - | inhibition | 6.25 µg/mL | H37Rv | resazurin | 21%
CC(C)c1ccc2c(c1)CC[C@H]1[C@](C)(CNCCNCC(O)CO)CCC[C@]21C | - | MIC | - | - | - | 50 µM
O=C1C(Cl)=C(n2c(=O)oc3ccccc32)C(=O)c2ccccc21 | - | inhibition | 12.5 µg/mL | H37Rv | BACTEC | -12%
CO[C@H]1/C=C/O[C@@]2(C)Oc3c(C)c(O)c4c(=O)c(c5oc6cc(N7CCN(CC(C)C)CC7)cc(=O)c6nc5c4c3=C2O)NC(=O)/C(C)=C\C=C\[C@H](C)[C@H](O)[C@@H](C)[C@@H](O)[C@@H](C)[C@H](OC(C)=O)[C@@H]1C | - | MIC | - | H37Rv | - | ≤0.015 µg/mL
C/C(CCC(=O)O)=N/NC(=O)c1ccccc1 | - | MIC | - | - | - | 1 µg/mL
CCCCCCCCCCCNCCNC/C=C(\C)CCC=C(C)C | - | MIC | - | - | - | 25 µM
CC1=NN(c2ccccc2)C(=O)C1N=Nc1ccc(S(=O)(=O)Nc2nnc(C)s2)cc1 | - | MIC | - | INH-r | - | 3.1 µg/mL
O=c1[nH]c2c(Cl)c(Cl)ccc2c(O)c1N=Nc1ccc([N+](=O)[O-])cc1 | - | inhibition | 6.25 µg/mL | H37Rv | resazurin | 89%
CC(C)(C)CC(C)(C)NCCNCC(c1ccccc1)c1ccccc1 | - | MIC | - | - | - | 18.8 µM
COc1ccccc1/C=N/N1C(=O)C2C3C=CC(O3)C2C1=O | - | MIC bound | - | H37Rv | BACTEC | >12.5 µg/mL
CN(C)c1ccc(-n2c(=O)oc3cc(Cl)ccc3c2=O)cc1 | - | MIC | - | CNCTC MY331/88 | - | 8 µM
CCOC(=O)c1ccc2c(c1)nc(-c1ccc(Cl)cc1)n2CCN1CCCOC1 | - | EC90 | - | H37Rv | resazurin / fluorescence | 87.52 µM
C/C=C/C(=O)NNC(=O)/C=C/C | - | MIC | - | - | - | >200 µg/mL
COc1ccc(/C=C/C(=O)c2ccccc2F)cc1 | - | EC50 | - | - | - | <12.5 µg/mL
CC1=NNC(=O)C1 | - | MIC | - | - | - | 100 µg/mL
CO[C@H]1/C=C/O[C@@]2(C)Oc3c(C)c(O)c4c(O)c(c(/C=N/N5CCN(C)CC5)c(O)c4c3C2=O)NC(=O)/C(C)=C\C=C\[C@H](C)[C@H](O)[C@@H](C)[C@@H](O)[C@@H](C)[C@H](OC(C)=O)[C@@H]1C | - | MIC | - | H37Rv (streptomycin-resistant) | - | 5 µg/mL
O=C1C=CC2=C3c4cc(O)c(O)cc4CC3(O)COC2=C1O | - | MIC | - | H37Rv | BACTEC | ≥128 µg/mL
CC1COc2c(N3CCN(C)CC3)c(F)cc3c(=O)c(C(=O)O)cn1c23 | - | MIC | - | SMI 15 | agar | 4 µg/mL
Cc1cc(NNC(N)=S)c2ccccc2c1N=NC(N)=S | - | MIC bound | - | H37Rv | BACTEC | >12.5 µg/mL
O=c1oc2ccc(Br)cc2c(=O)n1-c1ccc(C(F)(F)F)cc1 | - | MIC | - | CNCTC MY331/88 | - | 1 µM
CO[C@H]1/C=C/O[C@@]2(C)Oc3c(C)c(O)c4c(O)c(c5c(c4c3C2=O)NC2(CCN(CC(C)C)CC2)N=5)=NC(=O)/C(C)=C\C=C\[C@H](C)[C@H](O)[C@@H](C)[C@@H](O)[C@@H](C)[C@H](OC(C)=O)[C@@H]1C | - | MBC | - | 2230 (rifampin-resistant) | - | 0.8 µg/mL
CO/C(=N\N=C\c1ccc(OC)c(OC)c1)c1ccncc1 | - | MIC | - | H37Rv | - | >20 µg/mL
COc1ccc(/C=C/C(=O)c2c(O)cc(OC)cc2OC)cc1 | - | EC50 | - | H37Rv | - | >12.5 µg/mL
CCCCCc1cc(OC)c2ccccc2n1 | - | MIC | - | MT2 | - | 42 µg/mL
C[C@H](NCCNCc1ccc(C(F)(F)F)cc1)[C@H](O)c1ccc(O)c(O)c1 | - | MIC | - | - | - | 25 µM
OCc1ccccc1Sc1ccccc1CNCCNCCc1ccc(F)cc1 | - | MIC | - | - | - | 50 µM
CCN(CC)Cc1cc(Nc2c(C)cnc3cc(Cl)ccc23)ccc1O | - | inhibition | 6.25 µg/mL | H37Rv | resazurin | 21%
CC1(C)[C@H]2CC[C@@H](CNCCNC3C4CC5CC(C4)CC3C5)[C@@H]1C2 | - | MIC | - | - | - | 50 µM
CC(=O)NNS(=O)(=O)c1ccc(C)cc1C | - | MIC | - | - | - | >200 µg/mL
O=C(/C=C\C(=O)Nc1cccc(C2=NCCN2)c1)Nc1cccc(C2=NCCN2)c1 | - | inhibition | 6.25 µg/mL | H37Rv | resazurin | 38%
CCC(CO)NCCNCC(c1ccccc1)c1ccccc1 | - | MIC | - | - | - | 9.4 µM
COc1ccccc1-n1cccc(C#N)c1=S | - | inhibition | 12.5 µg/mL | H37Rv | BACTEC | 27%
c1ccc(C(CNCCNC23CC4CC(CC(C4)C2)C3)c2ccccc2)cc1 | - | MIC | - | - | - | 37.5 µM
O=C(NN(C(=O)c1ccccc1)c1ccccc1)c1ccccc1 | - | MIC | - | - | - | >200 µg/mL
O=C1CCCCCCC/C=C\CCCCCCO1 | - | inhibition | 12.5 µg/mL | H37Rv | BACTEC | 18%
O=C1CC(c2ccccc2)Oc2cc(Br)ccc21 | - | EC50 | - | - | - | >12.5 µg/mL
N[C@@H]1CONC1=O | - | MIC | - | H37Rv | resazurin / fluorescence | >100 µM
CC(CNCC(c1ccccc1)c1ccccc1)NCC12CC3CC(CC(C3)C1)C2 | - | MIC | - | - | - | 25 µM
CO[C@H]1/C=C/O[C@@]2(C)Oc3c(C)c(O)c4c(O)c(c(/C=N/N5CCN(C6CCCC6)CC5)c(O)c4c3C2=O)NC(=O)/C(C)=C\C=C\[C@H](C)[C@H](O)[C@@H](C)[C@@H](O)[C@@H](C)[C@H](OC(C)=O)[C@@H]1C | - | MIC | - | L188 | - | 0.2 µg/mL
COc1ccc(C(=O)/C=C/c2cccc(I)c2)c(O)c1 | - | EC50 | - | H37Rv | - | >12.5 µg/mL
CC12CCC3C(C1)C(C(=O)O2)C(=O)OC3(C)C | - | MIC | - | H37Rv | BACTEC | ≥12.5 µg/mL
CO/C(=N\N=C\c1ccc(C(F)(F)F)cc1)c1ccncc1 | - | MIC | - | 6 PI | - | >20 µg/mL
CC(C)c1ccc2c(c1)CC[C@H]1[C@](C)(CNCCNCc3cccc4ccccc34)CCC[C@]21C | - | MIC | - | - | - | 50 µM
O=C1CC(c2ccccc2)=NN1 | - | MIC | - | - | - | >200 µg/mL
NNC(=O)N/N=C1\C(=O)N(c2ccc(Cl)c(Cl)c2)C(=O)C(=O)C1c1nc2ccccc2o1 | - | MIC bound | - | H37Rv | resazurin | >6.25 µg/mL
CN[C@@H]1[C@H](O[C@H]2[C@H](O[C@H]3[C@H](O)[C@@H](O)[C@H](N=C(N)N)[C@@H](O)[C@@H]3N=C(N)N)O[C@@H](C)[C@]2(O)C=O)O[C@@H](CO)[C@H](O)[C@H]1O | - | MIC | - | 4308/95 (streptomycin-resistant) | - | 25–50 µg/mL
COC(=O)N/N=C/c1oc(-c2ccccc2)c(-c2ccccc2)c1[N+](=O)[O-] | - | MIC bound | - | H37Rv | BACTEC | >12.5 µg/mL
CCOC(=O)c1ccc2nc(-c3ccc(Cl)cc3)[nH]c2c1 | - | EC90 | - | H37Rv | resazurin / fluorescence | 83.66 µM
Nc1cc(=O)c2n[nH]nc2[nH]1 | - | inhibition | 12.5 µg/mL | H37Rv | BACTEC | 24%
CCOC(=O)c1ccc2c(c1)nc(-c1cccc(-c3ccc(F)cc3)c1)n2CCN1CCCC1=O | - | EC90 | - | H37Rv | resazurin / fluorescence | 83.63 µM
O=c1[nH]c2ccccc2c(O)c1N=Nc1cccc(Cl)c1 | - | MIC | - | H37Rv | resazurin | >6.25 µg/mL
Cc1ccc2oc(=O)n(-c3ccc(C(F)(F)F)cc3)c(=O)c2c1 | - | MIC | - | CNCTC MY331/88 | - | 8 µM
O=C(O)c1cnc(Cl)cn1 | - | MIC | - | ATCC 35828 | - | 256 µg/mL
CN1c2ccccc2CCC1CCc1ccc2c(c1)OCO2 | - | MIC | - | MT7 | - | 169 µg/mL
O=c1[nH][nH]c2ccccc12 | - | MIC | - | - | - | >200 µg/mL
Cn1c(=O)c(N=Nc2ccc([N+](=O)[O-])cc2)c(O)c2ccccc21 | - | inhibition | 6.25 µg/mL | H37Rv | resazurin | 20%
CO/C(=N\N=C\c1ccc(Cl)cc1Cl)c1ccncc1 | - | MIC | - | 16PI | - | >20 µg/mL
Cc1cccc(N=Nc2c(O)c3cccc(C)c3[nH]c2=O)c1 | - | MIC | - | H37Rv | resazurin | >6.25 µg/mL
CC1=C(C)C(c2ccccc2)CC(/C=N/NC(=O)c2ccccc2Cl)C1 | - | MIC | - | - | - | 100 µg/mL

For reference, 10 entries again:

structure | setting | measure | dose | strain or isolate | method | value
COC(=O)N/N=C/c1oc(-c2ccccc2)c(-c2ccccc2)c1[N+](=O)[O-] | - | MIC bound | - | H37Rv | BACTEC | >12.5 µg/mL
COc1ccc2c(=O)n(-c3ccc(Cl)c(Cl)c3)c(=O)oc2c1 | - | MIC | - | CNCTC MY331/88 | - | 16 µM
O=C1CC(c2ccccc2)=NN1 | - | MIC | - | - | - | >200 µg/mL
NC(=O)c1cnccn1 | - | MIC | - | Isolate 97-69 | - | 900 µg/mL
COc1ccc(C(=O)/C=C/c2cccc(I)c2)c(O)c1 | - | EC50 | - | H37Rv | - | >12.5 µg/mL
CO[C@H]1/C=C/O[C@@]2(C)Oc3c(C)c(O)c4c(O)c(c(/C=N/N5CCN(C6CCCC6)CC5)c(O)c4c3C2=O)NC(=O)/C(C)=C\C=C\[C@H](C)[C@H](O)[C@@H](C)[C@@H](O)[C@@H](C)[C@H](OC(C)=O)[C@@H]1C | - | MIC | - | L188 | - | 0.2 µg/mL
O=c1[nH]c2c(Cl)c(Cl)ccc2c(O)c1N=Nc1ccc([N+](=O)[O-])cc1 | - | inhibition | 6.25 µg/mL | H37Rv | resazurin | 89%
OCc1ccccc1Sc1ccccc1CNCCNCCc1ccc(F)cc1 | - | MIC | - | - | - | 50 µM
O=C1C=CC2=C3c4cc(O)c(O)cc4CC3(O)COC2=C1O | - | MIC | - | H37Rv | BACTEC | ≥128 µg/mL
O=C(O)c1cnc(Cl)cn1 | - | MIC | - | ATCC 35828 | - | 256 µg/mL

Neighbouring rows are from separate reports. Two numbers with a dash give a range or band. Inhibition is in % at the dose shown (toxicity tests: loss of growth or viability). Blank or dashed fields: not listed here. ECn: concentration that inhibits the pathogen or its effect by n%.